For one compound, Ratio results are on record in ChEMBL document CHEMBL2021919, “Computational analysis of structure-based interactions and ligand properties can predict efflux effects on antibiotics” (2012).

The subject of the test is Salmonella typhimurium. The experiment in a line: Ratio of MIC for wild type Salmonella typhimurium SH5014 to MIC for Salmonella typhimurium SH7616 harboring missense mutation in acrA/acrB gene by two-fold serial dilution method. In kind it is functional, Salmonella enterica subsp. enterica serovar Typhimurium.

The structures appear in SMILES notation.

As for `CC(=O)OCC1=C(C(=O)O)N2C(=O)[C@@H](NC(=O)Cc3cccs3)[C@H]2SC1` [CEPHALOTHIN], the Ratio came out at 4.
